Measurements as given in PMC9866706 (Toxins, 2022).

The chains behind the UniProt entries cited, without tags or fusion partners. Residues count along the entry.
UniProt P36544, 23-502 limits assumed: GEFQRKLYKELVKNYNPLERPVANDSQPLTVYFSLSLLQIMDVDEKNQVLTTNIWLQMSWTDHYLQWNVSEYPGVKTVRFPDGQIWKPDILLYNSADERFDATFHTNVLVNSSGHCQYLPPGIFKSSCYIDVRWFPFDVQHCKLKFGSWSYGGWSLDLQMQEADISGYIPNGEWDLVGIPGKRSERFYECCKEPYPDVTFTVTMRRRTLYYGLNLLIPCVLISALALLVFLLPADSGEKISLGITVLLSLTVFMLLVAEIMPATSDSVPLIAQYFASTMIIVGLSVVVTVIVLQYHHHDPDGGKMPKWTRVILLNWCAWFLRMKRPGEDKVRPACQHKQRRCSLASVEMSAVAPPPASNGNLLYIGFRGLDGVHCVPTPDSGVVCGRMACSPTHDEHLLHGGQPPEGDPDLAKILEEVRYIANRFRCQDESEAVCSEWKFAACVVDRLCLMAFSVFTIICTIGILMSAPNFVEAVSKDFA

What was measured:
[1] = biological target: human α7 nAChR (Homo sapiens, UniProt P36544); test: [125I]α-Bgt-competitive radioligand binding assay, human α7 in GH4C1 cells; conditions: recombinant peptides, mean (95% confidence interval); for IC50: GH4C1 cells 0.4 nM binding sites, 0.7–0.9 nM [125I]α-Bgt, 3.5 h room temperature, pH 8.0, triplicate; for Hill Slope: competition curve
[2] = biological target: muscle-type T. californica α1β1γδ nAChR (Tetronarce californica, UniProt P02710+P02712+P02714+P02718); test: [125I]α-Bgt-competitive radioligand binding assay, T. californica membranes; conditions: for Hill Slope: competition curve; for Hill Slope / IC50: mean (95% confidence interval); for IC50: membranes 0.55 nM binding sites, 0.7–0.9 nM [125I]α-Bgt, 3.5 h room temperature, pH 8.0, triplicate

Compound: CC[C@H](C)[C@@H]1NC(=O)CNC(=O)[C@H](CCCNC(=N)N)NC(=O)CNC(=O)[C@H](CC(N)=O)NC(=O)CNC(=O)[C@H](Cc2ccc(O)cc2)NC(=O)[C@H](CC(N)=O)NC(=O)[C@@H]2CCCN2C(=O)[C@H](CCCNC(=N)N)NC(=O)[C@H](CCCNC(=N)N)NC(=O)[C@@H]2CSSC[C@@H]3NC(=O)[C@H](Cc4c[nH]cn4)NC(=O)[C@H](CO)NC(=O)[C@H](CC(N)=O)NC(=O)[C@H](CC(C)C)NC(=O)[C@H](CC(N)=O)NC(=O)[C@H](CCCCN)NC(=O)[C@@H](NC(=O)CN)CSSC[C@H](NC(=O)[C@H](CSSC[C@@H](C(=O)N[C@H](C(=O)N[C@@H](CCCNC(=N)N)C(=O)N[C@@H](C)C(=O)O)C(C)C)NC(=O)[C@H](CCCCN)NC(=O)[C@H](Cc4c[nH]c5ccccc45)NC(=O)[C@H](CC(C)C)NC1=O)NC(=O)[C@H](CCC(=O)O)NC(=O)[C@H](CCCNC(=N)N)NC(=O)[C@H](Cc1c[nH]cn1)NC(=O)[C@H](CCC(N)=O)NC(=O)[C@H](CCCNC(=N)N)NC(=O)[C@H](Cc1ccc(O)cc1)NC3=O)C(=O)N[C@@H](Cc1c[nH]cn1)C(=O)NCC(=O)N[C@@H](CC(C)C)C(=O)N[C@@H](C(C)C)C(=O)N2
- IC50 [1]: 14.1 µM

Compound: CC[C@H](C)[C@@H]1NC(=O)CNC(=O)[C@H](CCCNC(=N)N)NC(=O)CNC(=O)[C@H](CC(N)=O)NC(=O)CNC(=O)[C@H](Cc2ccc(O)cc2)NC(=O)[C@H](CC(N)=O)NC(=O)[C@@H]2CCCN2C(=O)[C@H](CCCNC(=N)N)NC(=O)[C@H](CCCNC(=N)N)NC(=O)[C@@H]2CSSC[C@@H]3NC(=O)[C@H](CC(N)=O)NC(=O)[C@H](CO)NC(=O)[C@H](CC(N)=O)NC(=O)[C@H](CC(C)C)NC(=O)[C@H](CCCCN)NC(=O)[C@H](CCCCN)NC(=O)[C@@H](NC(=O)CN)CSSC[C@H](NC(=O)[C@H](CSSC[C@@H](C(=O)N[C@H](C(=O)N[C@@H](CCCCN)C(=O)N[C@@H](C)C(=O)O)C(C)C)NC(=O)[C@H](CCCNC(=N)N)NC(=O)[C@H](Cc4c[nH]c5ccccc45)NC(=O)[C@H](CC(C)C)NC1=O)NC(=O)[C@H](CCC(=O)O)NC(=O)[C@H](CCCNC(=N)N)NC(=O)[C@H](Cc1ccc(O)cc1)NC(=O)[C@H](CCC(N)=O)NC(=O)[C@H](CCCNC(=N)N)NC(=O)[C@H](CO)NC3=O)C(=O)N[C@@H](Cc1c[nH]cn1)C(=O)NCC(=O)N[C@@H](CC(C)C)C(=O)N[C@@H](C(C)C)C(=O)N2
- Hill Slope [1]: 1.18 (1.11–1.25)
- IC50 [1]: 14.2 µM
- Hill Slope ([2]; recombinant peptides): 0.96 (0.94–0.99)
- IC50 ([2]; recombinant peptides): 0.408 µM

Compound: CC[C@H](C)[C@@H]1NC(=O)[C@H](C)NC(=O)[C@H]([C@@H](C)O)NC(=O)[C@H](C(C)C)NC(=O)[C@H]([C@@H](C)CC)NC(=O)[C@@H]2CSSC[C@H](N)C(=O)N[C@@H](C)C(=O)N[C@@H](CCC(N)=O)C(=O)N[C@@H]([C@@H](C)O)C(=O)NCC(=O)NCC(=O)N[C@@H]([C@@H](C)O)C(=O)N[C@H]3CSSC[C@H](NC1=O)C(=O)N[C@@H](CO)C(=O)N[C@@H]([C@@H](C)O)C(=O)N[C@@H](C)C(=O)N[C@@H]([C@@H](C)O)C(=O)N[C@@H](CO)C(=O)N1CCC[C@H]1C(=O)N[C@@H](CCCCN)C(=O)N[C@@H]([C@@H](C)O)C(=O)N[C@H](C(=O)N[C@@H](Cc1ccccc1)C(=O)N[C@@H](Cc1ccc(O)cc1)C(=O)O)CSSC[C@H](NC(=O)[C@H](CC(=O)O)NC(=O)[C@H](CCCCN)NC(=O)[C@H](CO)NC(=O)[C@H](CCCCN)NC(=O)[C@H](CO)NC3=O)C(=O)N2
- IC50 [1]: > 45 µM
- Hill Slope ([2]; recombinant peptides): 1.14 (1.02–1.26)
- IC50 ([2]; recombinant peptides): 15 µM

Compound: CC[C@H](C)[C@@H]1NC(=O)CNC(=O)[C@H](Cc2ccc(O)cc2)NC(=O)[C@H](CC(=O)O)NC(=O)[C@@H]2CCCN2C(=O)[C@H](CCCNC(=N)N)NC(=O)[C@H](CCCNC(=N)N)NC(=O)[C@@H]2CSSC[C@@H]3NC(=O)[C@H](Cc4ccc(O)cc4)NC(=O)[C@H](CO)NC(=O)[C@H](CC(N)=O)NC(=O)[C@H](CC(C)C)NC(=O)[C@H](CCCCN)NC(=O)[C@H](CCCCN)NC(=O)[C@@H](NC(=O)CN)CSSC[C@H](NC(=O)[C@H](CSSC[C@@H](C(=O)N[C@H](C(=O)N[C@@H](CCCNC(=N)N)C(=O)N[C@@H](C)C(=O)N[C@@H](CCCNC(=N)N)C(=O)N[C@@H](CCCCN)C(=O)O)[C@@H](C)O)NC(=O)[C@H](CCCCN)NC(=O)[C@H](Cc4c[nH]c5ccccc45)NC(=O)[C@H](CC(C)C)NC(=O)[C@H]([C@@H](C)CC)NC(=O)CNC(=O)[C@H](CCCNC(=N)N)NC(=O)CNC1=O)NC(=O)[C@H](CCC(=O)O)NC(=O)[C@H](CCCNC(=N)N)NC(=O)[C@H](Cc1c[nH]cn1)NC(=O)[C@H](CCC(N)=O)NC(=O)[C@H](CCCNC(=N)N)NC(=O)[C@H]([C@@H](C)O)NC3=O)C(=O)N[C@@H](Cc1c[nH]cn1)C(=O)NCC(=O)N[C@@H](CC(C)C)C(=O)N[C@@H](C(C)C)C(=O)N2 [Ms11a-3]
- Hill Slope [1]: 2.37 (2.00–2.75)
- IC50 [1]: 19.8 µM
- binding activity, muscle-type receptor ([2]; recombinant peptides): greatest affinity
- Hill Slope ([2]; recombinant peptides): 0.98 (0.91–1.05)
- IC50 ([2]; recombinant peptides): 0.256 µM
- selectivity between α1β1γδ and α7 nAChRs ([2]; α1β1γδ (T. californica) over human α7, radioligand binding): 78 times
